This passage reports Ki results from US10407428B2, “Spiro-isoquinoline-1,4′-piperidine compounds having multimodal activity against pain” (ESTEVE PHARMACEUTICALS, S.A., priority 2014, dated 2019).

The test system of the assay is human σ1 receptor and human μ-opioid receptor. Nature of the assay: Human σ1 receptor radioligand assay and human μ-opioid receptor radioligand assay (μ and σ1 dual binding). The note with it: read-out: μ and σ1 dual binding; combined class for Ki-μ ([3H]-DAMGO, CHO-K1 membranes) and Ki-σ1 ([3H](+)-pentazocine, HEK-293 membranes).
Turning to `CC(=O)N1CCc2cc(O)ccc2C12CCN(CCc1ccccc1)CC2`, the Ki was greater than 500 nM.

For the compound `O=C(c1ccco1)N1CCc2ccccc2C12CCN(CCc1ccccc1)CC2`, the Ki is less than 500 nM. Take `CC(=O)N1CCc2ccccc2C12CCN(CCc1cncc(Cl)c1)CC2`: the Ki is less than 500 nM. For the compound `CC(C)C(=O)N1CCc2ccccc2C12CCN(CCc1ccccc1)CC2`, the Ki was less than 500 nM. In the case of `CC(=O)N1CCc2ccccc2C12CCN(CCN(C)Cc1ccccc1)CC2` it was less than 500 nM; in that of `CC(=O)N1CCc2ccccc2C12CCN(CCc1ccccc1)CC2`, less than 500 nM; in that of `COc1ccc2c(c1)CCN(C(C)=O)C21CCN(CCc2ccccc2)CC1`, less than 500 nM.

For the compound `CC(=O)N1CCc2ccccc2C12CCN(CCc1ccncc1F)CC2`, the Ki was less than 500 nM. Regarding `CC(=O)N1CCc2ccccc2C12CCN(CCc1cccc(OC(F)(F)F)c1)CC2`, the Ki is less than 500 nM.

Take `CC(=O)N1CCc2cc(Cl)ccc2C12CCN(CCc1ccccc1)CC2`: the Ki was less than 100 nM. For `CC(=O)N1CCc2ccccc2C12CCN(CCc1ccnc(C#N)c1)CC2`, the Ki is less than 500 nM. Regarding `CC(=O)N1CCc2ccccc2C12CCN(CCc1cccnc1)CC2`, the Ki was less than 500 nM. In the case of `CC(=O)N1CCc2ccccc2C12CCN(CCc1cncc(F)c1)CC2`, the Ki is less than 500 nM. On to `CC(=O)Nc1cccc(CCN2CCC3(CC2)c2ccccc2CCN3C(C)=O)c1`, for which the Ki was less than 500 nM. Take `CC(=O)N1CCc2ccccc2C12CCN(CCc1ccncc1)CC2`: the Ki is less than 500 nM. Take `CC(=O)N1CCc2ccccc2C12CCN(CCc1ccnc(C(F)(F)F)c1)CC2`: the Ki is less than 500 nM. In the case of `CC(=O)N1CCc2ccccc2C12CCN(CCN1CCOCC1)CC2` it was less than 500 nM; in that of `CC(=O)N1CCc2ccccc2C12CCN(CCN(C)c1ccccc1)CC2`, less than 100 nM.
